Measurements published in patent CN117659177A (SHENZHEN BAY LABORATORY; UNIV TSINGHUA, dated 2024).

B1: 抗体A138 (antibody, V domains shown)
VH: QVQLLESGGGLVKPGGSLRLSCAASGFTFRDYYMSWIREAPGKGLEWVASISRSGTTIYYADSVKGRFTISRDNAKNSLYLQMNSLRAEDTAVYYCARDEASSNYAFDYWGQGTPVTVSS
VL: DIQLTQSPSSVSASVGDGVTITCRASQPIGTWVAWYQQKPGKAPKLLISGASSLQSGLPSRFSGRKSGTDFTLTISSLQPDDSATYFCQQTNTFPLTFGQGTRLEIKR
B2: 抗体A129 (antibody, V domains shown)
VH: EVQLVESGGGVVQPGRSLRLSCAVSGLRLTNSGMHWVRQAPGKGLQWVAVLWSDGRNTDYEESVKGRFTISRDDSKNTLFLEMNTVGAEDTAMYYCVTDAGGSNSWEFFFDHWGQGTMVTVSS
VL: NIQLTQSPSSVSASVGDRVTITCRASQGISSWLAWYQQKPGKAPKLLIYAASSLQSGVPSRFSGSGSGTDFTLTISSLQPEDFATYYCQQANSFPFTFGPGTKVDIKR
B3: 抗体A073 (antibody, V domains shown)
VH: not shown
VL: DIQMIQSPSTLSASVGDRVTITCRASQSISIWLAWYQQKPGRAPKLLINAASNLQSGVPSRFSGSGSGTEFALTISSLQPEDFATYYCQQSYAKPTFGQGTTVELKR
B4: 抗体A051 (antibody, V domains shown)
VH: EVQLLESGGGLVKPGGSLRLSCAASGFTFSNAWMSWVRQAPGKGLEWVSGISGSGGSTYYADSVKGRFTISRDNSKNTLYLQMNSLRAEDTAVYYCAITPLSSAYGMDVWGQGTPVTVSS
VL: DIQMTQSPSSLSASVGDRVTITCRASQGISTWLAWYQQKPGKAPKLLIYAASTLQSGVPSRFSGSRSGADFTLTINSLQPEDFATYYCQQTNNFPYTFGRGTKLDIKR
B5: 抗体A046 (antibody, V domains shown)
VH: EVQLLESGGGLVQPGGSLRLSCVASGFTFSDHYMDWVRQAPGKGLEWVGRIRNKANRYTPEYAASVKGRFTFSRDDSKNSLYLQMNSLKIEDTAVYYCARVGPPVAAGHYDALDIWGQGTTVTVSS
VL: AIRMTQSPSFLSASVGDRVTITCRASQGISDYLAWYQQTPGKAPKLLIYAASSLQSGVPSRFSGSGSGTDFTLTISSLQPEDFATYYCQQANSFPYTFGQGTKLEIKR
B6: 抗体A124 (antibody, V domains shown)
VH: EVQLLESGGGLVKPGGSLRLSCAASGFTFSSYSMNWVRQAPGKGLEWVSSISSSSSYIYYADSVKGRFTISRDNAKNSLYLQMNSLRAEDTAVYYCARDLTLADYYYYGMDVWGQGTTVTVSS
VL: NIQLTQSPSSLSASVGDRVTITCRASQTITRYLNWYQHKPGKAPNLLIYGASILQSGVPSRFSGSYSGTDFTLTISSLQPEDFATYYCQQSYSTPYTFGQGTKLEIKR
B7: 抗体A094 (antibody, V domains shown)
VH: EVQLLESGGGLVQPGGSLRLSCAASGFTFRNYAMSWVRQAPGKGLEWVSSITSSGRYTYYADSVRGRFTISRDNANNSLYLQMSSLRAEDTAVYYCATELGDYWGQGTMVTVSS
VL: DIQMTQSPSSVSASVGDRVTITCRASQGISSWLSWYQQKPGRAPKLLISAASSLQTGVPSRFSGSGSGTHFTLTITSLQPEDFATYYCQQSDTFPITFGQGTRLEIKR
B8: 抗体A100 (antibody, V domains shown)
VH: EVQLLESGGGLVHPGGSLRLSCVASGFTFSRYSMNWVRQAPGKGLEWISYIDSRSGGISYADSVKGRFTISRDNAKNSLSLQMNSLRAEDTAVYYCVRDRFNWNNDDVFFDYWGQGTLVTVSS
VL: NIQLTQSPSSLSASVGDRVTITCRASQSISTYLNWYQQKPGKAPKLLIYAVSSLQSGVPSRFSGSQSGTDFSLTISSLQPEDFATYYCQQALSFPPTFGQGTKVEIKR
B9: 抗体A012 (antibody, V domains shown)
VH: EVQLLESGAEVKKPGESLKISCKGSGYSFTTYWIAWVRQMPGKGLEWMGIIYPGDSDTRYSPSFRGQVSISADKSINTAYLQWNSLKASDTAMYYCARPAVAGTPDAFDIWGQGTLVTVSS
VL: DIQLTQSPSSVSASVGERVTITCRASQGVGNWLAWYQHKPGKVPKLLIHSASNLQSGVPSRFSGSGFGTDFTLTISSLQPEDFATYYCQQASSFPLTFGGGTKVEIKR

Target: T1, 重组猴痘病毒表面蛋白M1R-His (Monkeypox virus)
T1 chain: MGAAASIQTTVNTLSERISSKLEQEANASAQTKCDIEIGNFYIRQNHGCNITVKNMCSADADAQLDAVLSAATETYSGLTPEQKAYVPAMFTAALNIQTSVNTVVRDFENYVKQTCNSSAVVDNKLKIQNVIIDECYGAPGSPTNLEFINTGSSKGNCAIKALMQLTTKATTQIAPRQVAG
Assay: not given

Binder | binding result
B1 | binds

Target: T1, 重组猴痘病毒表面蛋白M1R-His
Assay: ELISA, recombinant M1R coated at 2 μg/mL, IgG from 293T cells

Binder | binding result
B2 | binds
B3 | binds
B4 | binds
B5 | binds
B6 | binds
B7 | binds
B8 | binds
B9 | binds
